A mixed list of measured activities; the numbers were collected in NIAID ChemDB.

Shared fields: host cell toxicity; cell line: CEM; endpoint: CC50

CCn is the concentration with n% toxicity to the cells. Neighbouring rows are from separate reports.

SMILES,value
Fc1cccc(F)c1C1SCc2nc3ncccc3n21,>62 µM
O=C1c2sc(-c3ccccc3)cc2NS(=O)(=O)N1COCCO,121 µg/mL
CCCCCC(=O)NCCCCCCC(=O)O,95 µg/mL
O=C1c2cc(-c3ccccc3)sc2N(Cc2ccccc2)S(=O)(=O)N1COCc1ccccc1,>50 µg/mL
CCCCCCCCCCCC(=O)CC(=O)O,18 µg/mL
Nc1nc(=O)n([C@@H]2O[C@@H](CO)[C@H](O)C2(F)F)cc1F,>100 µM
[N-]=[N+]=NCCCCCCCCCCCCC(=O)O,17 µg/mL
CNOC(=O)Cn1c(=O)c(C)cn([C@@H]2O[C@H](CO[Si](C)(C)C(C)(C)C)[C@@H](O[Si](C)(C)C(C)(C)C)[C@H]2O)c1=O,18 µM
O=C(O)CCCCCCCCCCCCn1ncnn1,179 µg/mL
Nc1cc(OC[C@H]2CC[C@@H](CO)O2)ncn1,>250 µM
O=C1c2sc(-c3ccccc3)cc2N(COCCO)S(=O)(=O)N1Cc1ccccc1,36 µg/mL
CCCCCC=C(c1cc(Br)cc(C(=O)O)c1O)c1cc(Br)cc(C(=O)O)c1O,>21.8 µM
Clc1ccccc1C1SCc2nc3ncccc3n21,83.9 µM
O=c1[nH]c(=O)n([C@@H]2O[C@@H](CO)[C@H](O)C2(F)F)cc1Cl,>100 µM
O=C(O)c1cc(C(=CCCBr)c2cc(Cl)c(O)c(C(=O)O)c2)cc(Cl)c1O,181 µM
O=C1CSC(c2c(Cl)cccc2Cl)N1Cc1cccs1,41.54 µM
Nc1ccn([C@@H]2O[C@@H](CO)[C@H](O)C2(F)F)c(=O)n1,>100 µM
CCCCCCCCCCC(=O)NCC(=O)O,23 µg/mL
Cc1c(C)c(S(=O)(=O)NC(N)=NCCCC(N)C(=O)N2CCCC2C#N)c(C)c2c1C(C)(C)OC(C)(C)C2(C)C,>50 µM
CC(=O)OCCOCN1c2cc(-c3ccccc3)sc2C(=O)N(Cc2ccccc2)S1(=O)=O,37 µg/mL
Nc1nc2c(ncn2[C@@H]2O[C@@H](CO)[C@H](O)C2(F)F)c(=O)[nH]1,>100 µM
O=C1c2cc(-c3ccccc3)sc2N(Cc2ccccc2)S(=O)(=O)N1CCOCCO,48 µg/mL
Cn1cccc1CN1C(=O)CSC1c1c(F)cccc1Cl,68.1 µM
c1ccc(C2SCc3nc4ncccc4n32)cc1,324 µM
CC(=O)c1ccc(C)cc1NC(C(N)=O)c1c(Cl)cccc1Cl,>500 µM
Cc1c(N)nc(N)nc1OCCOCP(=O)(O)O,33 µM
NC(=O)CC[C@H](NC(=O)c1ccccc1SSc1ccccc1C(=O)N[C@@H](CCC(N)=O)C(=O)O)C(=O)O,>100 µM
CCCN(C[C@@H](O)[C@H](Cc1ccccc1)NC(=O)[C@H](C)CS(C)(=O)=O)S(=O)(=O)c1ccc(OC)cc1,>1000 µM
Cc1cn([C@@H]2O[C@@H](CO)[C@H](O)C2(F)F)c(=O)[nH]c1=O,>100 µM
COC(=O)C[C@H](CCCCNC(=O)OCc1ccccc1)NC(=O)c1ccccc1SSc1ccccc1C(=O)N[C@@H](CCCCNC(=O)OCc1ccccc1)CC(=O)OC,16 µM
COc1ccc(S(=O)(=O)N(CCC(C)C)C[C@@H](O)[C@H](Cc2ccccc2)NC(=O)[C@H](C)CS(C)(=O)=O)cc1,90 µM
O=C(O)CCCCCCCCCCCn1ncnn1,168 µg/mL
CSCC[C@](C)(NC(=O)c1ccccc1SSc1ccccc1C(=O)N[C@@](C)(CCSC)C(=O)O)C(=O)O,>100 µM
COC(=O)CCCCCCCCCCC(=O)O,>100 µg/mL
COC(=O)Cn1c(=O)c(C)cn([C@@H]2O[C@H](CO[Si](C)(C)C(C)(C)C)[C@@H](O[Si](C)(C)C(C)(C)C)[C@H]2O)c1=O,13 µM
O=c1ccn([C@H]2O[C@@H](CO)[C@H](O)C2(F)F)c(=O)[nH]1,>100 µM
Fc1cccc(C2SCc3nc4ncccc4n32)c1,>132 µM
S=C1NNC2(C(=S)N1)c1ccccc1-c1ccccc12,110 µM
O=C(Nc1cccc(-c2nc3cc(C(=O)Nc4ccc(S(=O)(=O)O)c5cc(S(=O)(=O)O)cc(S(=O)(=O)O)c45)ccc3[nH]2)c1)Nc1cccc(-c2nc3cc(C(=O)Nc4ccc(S(=O)(=O)O)c5cc(S(=O)(=O)O)cc(S(=O)(=O)O)c45)ccc3[nH]2)c1,60.9 µM
c1ccc(COC[C@H]2CC[C@@H](COc3cc(OC[C@H]4CC[C@@H](COCc5ccccc5)O4)ncn3)O2)cc1,21 µM
S=C1N=C(Cl)C2(NN1)c1ccccc1-c1ccccc12,200 µM
Nc1nc(N)nc(OC[C@H]2CC[C@@H](CO)O2)n1,>250 µM
Cc1cn([C@@H]2O[C@H](CO[Si](C)(C)C(C)(C)C)[C@@H](O)[C@H]2O[Si](C)(C)C(C)(C)C)c(=O)n(Cc2nn[nH]n2)c1=O,19 µM
CC(C)(C)OC(=O)NCCCC[C@H](NC(=O)c1ccccc1SSc1ccccc1C(=O)N[C@@H](CCCCNC(=O)OC(C)(C)C)C(=O)OC(C)(C)C)C(=O)OC(C)(C)C,23 µM
CCCCCCCCCCCCCCCCC(c1ccc(O)c(C(=O)O)c1)c1ccc(O)c(C(=O)O)c1,51.4 µM
O=C1N=C2SC=C(NC(=S)Nc3ccccc3)N2NC12c1ccccc1-c1ccccc12,82 µM
OC[C@H]1O[C@@H](c2cc(Cl)c(F)cc2F)C[C@@H]1O,>250 µM
Nc1nc2c(ncn2[C@H]2C=C[C@@H](CO)C2)c(=O)[nH]1,189 µg/mL
Nc1ccn([C@H]2S[C@@H](CO)C=C2F)c(=O)n1,>100 µM
CCn1cc(C(=O)O)c(=O)c2cc(F)c(N3CCN(c4ccccc4OC)CC3)c(OC(F)F)c21,24 µM
CC(C)(C)[Si](C)(C)OC[C@H]1O[C@@H](n2cnc3c(=O)n(CC(=O)O)cnc32)[C@H](O)[C@@H]1O[Si](C)(C)C(C)(C)C,173 µM
COc1cc(Cc2cnc(/N=C3\C(=O)N(CN4CCN(c5ccccc5)CC4)c4ccc(C)cc43)nc2N)cc(OC)c1OC,121 µM
Nc1ccn([C@H]2CC[C@@H](CO)O2)c(=O)n1,120 µM
CC(=O)Nc1ccc(S(=O)(=O)N(CC(C)C)C[C@@H](O)[C@H](Cc2ccccc2)NC(=O)[C@H](C)CS(C)(=O)=O)cc1,860 µM
c1ccc(COC[C@@H]2CC[C@H](COc3ncnc4nc[nH]c34)O2)cc1,13 µM
O=c1[nH]cnc2c1ncn2[C@@H]1O[C@@H](CO)[C@H](O)C1(F)F,>100 µM
CCCCCCCCCC=C(c1cc(Cl)c(OC)c(C(=O)O)c1)c1cc(Cl)c(OC)c(C(=O)O)c1,149 µM
Cc1cn([C@@H]2CC[C@H](COC(=O)CCCCCCCCC(=O)OC[C@H]3O[C@@H](n4cc(C)c(=O)[nH]c4=O)C[C@@H]3F)O2)c(=O)[nH]c1=O,>1 µM
Nc1cc(OC[C@H]2CC[C@@H](COCc3ccccc3)O2)ncn1,129 µM
CCCCCC=C(c1cc(Cl)c(OC)c(C(=O)O)c1)c1cc(Cl)c(OC)c(C(=O)O)c1,13.4 µM
Cc1cn([C@@H]2O[C@H](CO[Si](C)(C)C(C)(C)C)[C@@H](O)[C@H]2O[Si](C)(C)C(C)(C)C)c(=O)n(CCCCC(=O)O)c1=O,22 µM
Nc1ncnc2c1ncn2[C@@H]1C[C@H](O)[C@@H](O)[C@H]1O,27 µg/mL
O=S(=O)(c1cccc2cnccc12)N1CCNCC1,10.2 µg/mL
Cc1cn([C@@H]2O[C@H](COC(=O)C(C)(C)C)[C@@H](O)[C@H]2OC(=O)C(C)(C)C)c(=O)n(CC(=O)O)c1=O,>250 µM
O=C(O)CNC(=O)c1ccccc1SSc1ccccc1C(=O)NCC(=O)O,>100 µM
C[C@]1(Cn2cnc3c(=O)[nH]c(N)nc32)[C@@H](COCP(=O)(O)O)C1(F)F,>100 µM
CC(C)CCC[C@@H](C)[C@H]1CC[C@H]2[C@@H]3CC[C@H]4C[C@@H](CCCC(c5cc(Cl)c(O)c(C(=O)O)c5)c5cc(Cl)c(O)c(C(=O)O)c5)CC[C@]4(C)[C@H]3CC[C@]12C,>310 µM
NC1=NNC2(C(=O)N1)c1ccccc1-c1ccccc12,75 µM
S=c1[nH]c(=S)c2c3c(sc2[nH]1)CCCC3,>100 µM
Nc1cc(OC[C@@H]2O[C@H](CO)[C@@H](O)[C@H]2O)nc(N)n1,>250 µM
COc1ccc2c(c1)OCC1c3ccc(OCc4ccccc4)cc3OC21,200 µM
COc1cc(Cc2cnc(/N=C3\C(=O)N(CN4CCN(c5ccccn5)CC4)c4ccc(C)cc43)nc2N)cc(OC)c1OC,121 µM
CC(C)CS[C@@H]1C[C@H](n2cnc3c(N)ncnc32)[C@@H](O)[C@H]1O,94 µg/mL
COc1cccc(N2CCN(CN3C(=O)/C(=N\c4ncc(Cc5cc(OC)c(OC)c(OC)c5)c(N)n4)c4cc(C)ccc43)CC2)c1,11.9 µM
COc1ccc2c(c1)OCC1c3cc(O)c(OCc4cccc5ccccc45)cc3OC21,38.5 µM
O=C(O)CSC1=NNC2(C(=O)N1)c1ccccc1-c1ccccc12,55 µM
COc1cc(Cc2cnc(/N=C3\C(=O)N(CN4CCN(c5ccc(Cl)cc5)CC4)c4ccc(C)cc43)nc2N)cc(OC)c1OC,36.1 µM
Nc1ccn([C@H]2O[C@@H](CO)[C@H](O)C2(F)F)c(=O)n1,>100 µM
C[C@]1(CO)[C@H](Cn2cnc3c(=O)[nH]c(N)nc32)C1(F)F,>100 µM
CC(C)CCC[C@@H](C)[C@H]1CC[C@H]2[C@@H]3CC[C@H]4C[C@@H](CC=C(c5cc(Cl)c(O)c(C(=O)O)c5)c5cc(Cl)c(O)c(C(=O)O)c5)CC[C@]4(C)[C@H]3CC[C@]12C,>320 µM

Repeating the first 8 entries:

SMILES,value
Fc1cccc(F)c1C1SCc2nc3ncccc3n21,>62 µM
O=C1c2sc(-c3ccccc3)cc2NS(=O)(=O)N1COCCO,121 µg/mL
CCCCCC(=O)NCCCCCCC(=O)O,95 µg/mL
O=C1c2cc(-c3ccccc3)sc2N(Cc2ccccc2)S(=O)(=O)N1COCc1ccccc1,>50 µg/mL
CCCCCCCCCCCC(=O)CC(=O)O,18 µg/mL
Nc1nc(=O)n([C@@H]2O[C@@H](CO)[C@H](O)C2(F)F)cc1F,>100 µM
[N-]=[N+]=NCCCCCCCCCCCCC(=O)O,17 µg/mL
CNOC(=O)Cn1c(=O)c(C)cn([C@@H]2O[C@H](CO[Si](C)(C)C(C)(C)C)[C@@H](O[Si](C)(C)C(C)(C)C)[C@H]2O)c1=O,18 µM